Results of unrelated studies side by side (data: NIAID ChemDB).

All rows: whole-cell or culture tests; agent: Mycobacterium tuberculosis

ECn: concentration that inhibits the pathogen or its effect by n%. Rows are shuffled and stem from different studies. MIC50, MIC90 and the like: level of inhibition, or share of isolates inhibited. Percent inhibition refers to the dose given; in toxicity tests it is the harm to the cells. MIC bound comes from a single tested concentration. Blank or dashed fields: not listed here.

structure	endpoint	dose	strain or isolate	read by	value
O=[N+]([O-])c1cn2c(n1)OC(C(Cl)(Cl)Cl)C2	MIC		H37Rv		31.2 µg/mL
Cc1nc(NCCc2ccc(C(F)(F)F)cc2)c2ccccc2n1	MIC50		H37Rv	luminescence	>10 µM
CC1Cn2c([N+](=O)[O-])cnc2O1	MIC		H37Rv		250 µg/mL
O=C(Nc1ncc([N+](=O)[O-])s1)c1cccnc1	MIC		RMP-R		6.3 µg/mL
Cc1c(CN2CCN(C)CC2)cc(-c2ccccc2)n1-c1ccccc1F	MIC		103471		>16 µg/mL
C=C[C@]1(C)C=C2c3c[nH]c4cccc(c34)C(C)(C)[C@H]2C[C@H]1O	MIC				>100 µM
C[C@H]1NCc2cc(-c3ccc4c(=O)c(C(=O)O)cn(C5CC5)c4c3OC(F)F)ccc21	MIC50		10 strains		2 µg/mL
COc1ccc(C2Oc3ccc(Br)cc3C(=O)C2O)cc1	EC50				>12.5 µg/mL
COC(=O)c1cc(=O)c2scc(C)[n+]2[nH]1.[Cl-]	inhibition	12.5 µg/mL	H37Rv	BACTEC	17%
C=CC(C)(O)CCCC=C(C)C	MIC		H37Ra	absorbance	>256 µg/mL
C/C=C(/C)C(=O)O[C@H]1CC[C@@]2(C)[C@@H]3CC[C@H]4[C@]5(O)C[C@H](O)[C@@]6(O)[C@@H](CN7C[C@@H](C)CCC7[C@@]6(C)O)[C@]5(O)C[C@@]42O[C@]13O	inhibition	12.8 µg/mL	H37Rv	BACTEC	15%
Cc1c(CN2CCSCC2)cc(-c2ccccc2)n1-c1ccccc1F	MIC		103471		8 µg/mL
C/C(=N\Nc1nc2ccccc2s1)c1ccc2c(c1)Sc1ccccc1O2	inhibition	12.5 µg/mL	H37Rv	BACTEC	91%
COc1cc(OC)c2c(c1)OC(c1cc(OC)c(OC)c(OC)c1)C(Br)(Br)C2=O	inhibition	12.5 µg/mL	H37Rv		16%
FC(F)(F)c1cccc(Oc2ccc(Nc3ncnc4ccccc34)cc2)n1	MIC50		H37Rv	luminescence	>20 µM
CC(C)(C)n1cc(C(=O)O)c(=O)c2cc([N+](=O)[O-])c(N3CCOCC3)cc21	MIC90		ATCC 27294 (WT)		75 µM
O=C1C=C(Nc2ccccc2)c2ccccc2C1=O	inhibition	6.25 µg/mL	H37Rv	resazurin	98%
C/C=C(/C)C(=O)OC/C=C\C#CC#C/C=C\C(=O)OC	MIC		H37Rv		25 µg/mL
CCCCCCCCCCCCNC[C@H]1OC2OC(C)(C)OC2C2OC(C)(C)OC21	MIC		H37Ra		12.5 µg/mL
O=S(=O)(NCCO)c1ccc(-c2nnn(Cc3ccc(F)cc3)n2)cc1	MIC		H37Rv	resazurin	<0.1 µM
C/C=C(/C)C(=O)OC/C=C\C#CC#C/C=C/C(=O)OC	MIC		H37Rv		>50 µg/mL
COc1cc(-c2nnn(Cc3ccc(C#N)cc3)n2)ccc1S(=O)(=O)NCC(N)=O	MIC		H37Rv	resazurin	<0.1 µM
CCCCCCCNC(CCO)[C@H]1OC2OC(C)(C)OC2C2OC(C)(C)OC21	MIC		H37Rv		>100 µg/mL
O=S(=O)(NCCO)c1ccc(-c2nnn(Cc3ccc(Cl)cc3)n2)cc1	MIC		H37Rv	resazurin	<0.1 µM
O=C1CC(c2ccc(Cl)cc2)Oc2ccccc21	EC50				>12.5 µg/mL
Cc1c(CN2CCN(C)CC2)cc(-c2ccccc2)n1-c1ccccc1Cl	MIC		103471		>16 µg/mL
Fc1ccc(N2CCN(c3ccc(Nc4ncnc5ccsc45)cc3)CC2)cc1	MIC50		H37Rv	luminescence	>20 µM
CC(C)(C)n1cc(C(=O)O)c(=O)c2cc([N+](=O)[O-])c(N3CCSCC3)cc21	MIC50		ATCC 27294 (WT)		1.6 µM
CN(C)c1ccc(CCNc2ncnc3ccsc23)cc1	MIC50		H37Rv	luminescence	>50 µM
Cc1nc(N)c2ncn([C@@H]3O[C@H](CO)[C@@H](O)[C@H]3O)c2n1	MIC		Erdman (ATCC 35801)		<1.56 µg/mL
COc1cc(-c2nc(SC)nc3c2ccc2ccccc23)cc(OC)c1OC	MIC bound		H37Rv	BACTEC	>12.5 µg/mL
FC(F)(F)c1ccc(Oc2ccc(Nc3ncnc4cc(Cl)ccc34)cc2)cc1	MIC50		H37Rv	luminescence	>20 µM
CCCCn1c(-c2cc3cc(Br)ccc3oc2=O)cs/c1=N\N=C\c1ccc(O)c(OCC)c1	inhibition	12.5 µg/mL	H37Rv		69%
COc1ccc2c(c1OC)C1=NCCc3cc4c(cc3C1(OC)C2=O)OCO4	MIC		H37Rv	BACTEC	≥12.5 µg/mL
Cc1c(CN2CCSCC2)cc(-c2ccccc2)n1-c1ccc(F)cc1	MIC		103471		0.4 µg/mL
NNC(=O)c1ccncc1	MBC		131-4		0.05 µg/mL
CC(C)COc1ccc(NC(=S)Nc2ccc(-c3ccccn3)cc2)cc1	MIC		H37Rv		>50 µg/mL
O=C(/C=C/c1ccccc1)c1cccc(Br)c1O	EC50		H37Rv		<12.5 µg/mL
N#CCNS(=O)(=O)c1ccc(-c2nnn(Cc3ccc(F)cn3)n2)cc1	MIC		H37Rv	resazurin	<0.1 µM
O=C1c2cccc([N+](=O)[O-])c2C(=O)c2c1oc1ccc3ccccc3c21	MIC		H37Rv	BACTEC	12.5 µg/mL
O=S(=O)(NCCO)c1ccc(-c2nnn(Cc3ccc(F)cn3)n2)c(F)c1F	MIC		H37Rv	resazurin	<0.1 µM
O=[N+]([O-])c1cn2c(n1)OC(CBr)C2	MIC		H37Rv		0.24 µg/mL
C/C=C\C#CC#C/C=C/C(=O)OC	MIC		H37Rv		50 µg/mL
CN(C)c1ccc2nc3c(cc(Nc4cccc5cccc(Nc6cc7ccccc7c7nc8ccc(N(C)C)cc8[o+]c67)c45)c4ccccc43)[o+]c2c1	inhibition	12.5 µg/mL	H37Rv	BACTEC	93%
O=[N+]([O-])c1cn2c(n1)OC1(CCCCC1)C2	MIC		H37Rv		0.015 µg/mL
O=C(O)c1cn(N2CCOCC2)c2cc(NC3CC3)c([N+](=O)[O-])cc2c1=O	MIC90		ATCC 27294 (WT)		65 µM
CCn1c(-c2cc3cc(Br)ccc3oc2=O)cs/c1=N\N=C\c1ccc(Cl)cc1	EC50		H37Rv		<12.5 µg/mL
CC(C)OCC1Cn2cc([N+](=O)[O-])nc2O1	MIC		H37Rv		3.9 µg/mL
COc1ccc(C2Oc3cc(OC)cc(OC)c3C(=O)C2Br)cc1	EC50				>12.5 µg/mL
FS(F)(F)(F)(F)c1ccc(CCNc2ncnc3ccsc23)cc1	MIC50		H37Rv	luminescence	>50 µM
CN(C)C/C=C(/c1ccccc1)c1ccc(-c2ccc(Br)cc2)cc1	MBC		H37Ra		16 µg/mL
Cc1cc2n(n1)C(=O)CC(=O)C2	MIC bound		H37Rv	resazurin	>6.25 µg/mL
FC(F)(F)c1ccc(N2CCCN(c3ccc(Nc4ncnc5ccccc45)cc3)CC2)cc1	MIC50		H37Rv	luminescence	>50 µM
CCC1=CC2CN3CCc4c([nH]c5ccccc45)C(C(=O)OC)(C2)C13.O=S(=O)(O)O	MIC bound		H37Rv	resazurin	>6.25 µg/mL
O=C(O)c1cn(CCF)c2cc(NCCF)c([N+](=O)[O-])cc2c1=O	MIC90		ATCC 27294 (WT)		>200 µM
COC1/C=C\C=C(\C)C(=O)NC2=CC(=O)C(=O)C(=C2O)CC(C)CC(OC)C(O)C(C)/C=C(/C)C1OC(N)=O	MIC		H37Rv	BACTEC	≥12.5 µg/mL
CCCCCCCCCCCCCCCCCCC1OC2OC(C)(C)OC2[C@@H]1OCc1ccccc1	MIC		H37Rv		<12.5 µg/mL
Nc1ccc(S(=O)(=O)Nc2cnccn2)cc1	MIC		H37Rv	BACTEC	22 µg/mL
COc1ccc2c(c1)OC(c1cccc([N+](=O)[O-])c1)CC2=O	EC50				>12.5 µg/mL
c1ccc2c(Nc3ccc(N4CCOCC4)cc3)ncnc2c1	MIC50		H37Rv	luminescence	>50 µM
CCn1c(-c2cc3ccccc3oc2=O)cs/c1=N\N=C\c1ccc(Cl)cc1	inhibition	12.5 µg/mL	H37Rv		24%
COc1cc(-c2nnn(Cc3ccncc3)n2)ccc1S(=O)(=O)NCC#N	MIC		H37Rv	resazurin	<0.1 µM
O=C(O)c1cn(C2CCCC2)c2cc(NC3CCCC3)c([N+](=O)[O-])cc2c1=O	MIC50		ATCC 27294 (WT)		>200 µM
CS(=O)(=O)c1ccc(Oc2ccc(Nc3ncnc4cc(F)ccc34)cc2)cc1	MIC50		H37Rv	luminescence	>50 µM
CC1(C)OC2O[C@H](C(CCO)NC3CCCCC3)C3OC(C)(C)OC3C2O1	MIC		H37Ra		>100 µg/mL
CC(C)Nc1cc2c(cc1[N+](=O)[O-])c(=O)c(C(=O)O)cn2C(C)C	MIC50		ATCC 27294 (WT)		2 µM
NC(=O)CNS(=O)(=O)c1ccc(-c2nnn(Cc3ccc(Cl)cn3)n2)cc1	MIC		H37Rv	resazurin	<0.1 µM
CCCCCCCCCCCCCCCCNC(CCO)[C@@H]1OC2OC(C)(C)OC2C2OC(C)(C)OC21	MIC		H37Rv		<25 µg/mL
FC(F)(F)c1ccc(Oc2ccc(Nc3ncnc4nc[nH]c34)cc2)cc1	MIC50		H37Rv	luminescence	>20 µM
O=C1CC(c2ccccc2)Oc2cc(I)ccc21	inhibition	12.5 µg/mL			9%
C=CCn1c(-c2cc3ccccc3oc2=O)cs/c1=N\N=C\c1cc(Br)ccc1O	MIC		H37Rv		>12.5 µg/mL
Fc1ccc2c(NCCc3ccc(OC(F)(F)F)cc3)ncnc2c1	MIC50		H37Rv	luminescence	>20 µM
Cc1cc2c(cc1Cl)Sc1nccn1S2(=O)=O	MIC bound		H37Rv	resazurin	>6.25 µg/mL
CC(C)=CC(=O)C[C@@H](C)[C@H]1CC[C@@]2(C)C(=O)C=C(C)CC[C@H]12	inhibition	6.25 µg/mL	H37Rv		0%
CCOC(=O)c1cc(-n2nnc3ccccc32)cn1C	MIC bound		H37Rv	resazurin	>6.25 µg/mL
O=S(=O)(NCCO)c1ccc(-c2nnn(Cc3ccc(F)cn3)n2)cc1Cl	MIC		H37Rv	resazurin	<0.1 µM
O=[N+]([O-])c1cn2c(n1)OC(c1ccccc1)C2	MIC		H37Rv		0.95 µg/mL
Cc1c(CN2CCN(C)CC2)cc(-c2ccccc2F)n1-c1ccccc1	MIC		103471		16 µg/mL
O=c1nc2n(CC(O)C(O)C(O)C(O)CO)c3cc(Cl)c(Cl)cc3nc-2c(=O)[nH]1	inhibition	12.5 µg/mL	H37Rv	BACTEC	45%
Fc1ccc(N2CCN(c3ccc(Nc4ncnc5ccccc45)cc3)CC2)cc1	MIC50		H37Rv	luminescence	>50 µM
NC(=O)/C(N=Nc1ccccc1S(=O)(=O)O)=N/Nc1ccccc1S(=O)(=O)O	MIC bound		H37Rv	BACTEC	>12.5 µg/mL
FC(F)(F)c1ccc(Oc2ccc(Nc3nccc4ccccc34)cc2)cc1	MIC50		H37Rv	luminescence	>20 µM
O=C(CCCC(=O)N=Nc1c(Cl)c(O)c2ccccc2c1O)N=Nc1c(Cl)c(O)c2ccccc2c1O	MIC		H37Rv	BACTEC	≥12.5 µg/mL
CC(=O)Oc1ccc([C@H]2Oc3cc(OC(C)=O)cc(OC(C)=O)c3C(=O)[C@@H]2c2c(OC(C)=O)cc(OC(C)=O)c3c(=O)cc(-c4ccc(OC(C)=O)c(OC(C)=O)c4)oc23)cc1	inhibition	12.5 µg/mL	H37Rv		0%
Cc1c(CN2CCN(C)CC2)cc(-c2ccccc2)n1-c1ccc(F)cc1	MIC		103471		0.7 µg/mL
Fc1ccc2c(NCc3ccc(Oc4cccc(C(F)(F)F)c4)cc3)ncnc2c1	MIC50		H37Rv	luminescence	>20 µM
CCCCC1(C)Cn2cc([N+](=O)[O-])nc2O1	MIC		H37Rv		0.015 µg/mL
COC(=O)C1=C(C(=O)OC)C2(C(=O)OC)OC1(OC)C(C1(C(=O)OC)C(C(=O)OC)=C1C(=O)OC)=C2C(=O)OC	inhibition	12.5 µg/mL	H37Rv	BACTEC	10%
O=C(O)c1cn(C2CCC2)c2cc(NC3CCC3)c(F)cc2c1=O	MIC50		ATCC 27294 (WT)		>200 µM
NNC(=O)Cc1c[nH]c2ccccc12	inhibition	12.5 µg/mL	H37Rv	BACTEC	-11%
FC(F)(F)Oc1ccc(CCNc2ncnc3ccsc23)cc1	MIC50		H37Rv	luminescence	>50 µM

A second listing of 7 rows from above:

structure	endpoint	dose	strain or isolate	read by	value
O=C1CC(c2ccc(Cl)cc2)Oc2ccccc21	EC50				>12.5 µg/mL
Cc1c(CN2CCN(C)CC2)cc(-c2ccccc2)n1-c1ccccc1F	MIC		103471		>16 µg/mL
C/C=C\C#CC#C/C=C/C(=O)OC	MIC		H37Rv		50 µg/mL
CCCCC1(C)Cn2cc([N+](=O)[O-])nc2O1	MIC		H37Rv		0.015 µg/mL
CCCCCCCNC(CCO)[C@H]1OC2OC(C)(C)OC2C2OC(C)(C)OC21	MIC		H37Rv		>100 µg/mL
C=CCn1c(-c2cc3ccccc3oc2=O)cs/c1=N\N=C\c1cc(Br)ccc1O	MIC		H37Rv		>12.5 µg/mL
O=S(=O)(NCCO)c1ccc(-c2nnn(Cc3ccc(Cl)cc3)n2)cc1	MIC		H37Rv	resazurin	<0.1 µM